PubChem BioAssay AID624099 – ICCB-Longwood – 2012

Test: 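Knock-downs relieving repression by E2 of an HPV18 LCR luciferase reporter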 (primary screen)
System: human C33A cervical carcinoma cells (HPV-negative) stably expressing BPV1 E2 and an HPV18 LCR luciferase reporter
Reagent: siRNA pool against human genes, 40 nM
Duration: 72 h
Detection: 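Per-well luciferase luminescence, z-scored on each plate against the plate mean and SD with control wells left out, then averaged across three replicate plates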
Direction: mean z-score and z-score: higher = stronger reporter signal, weaker E2 silencing
Rule for the call: 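Hit if mean z-score reaches 2 and two or more of three replicate z-scores also reach 2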
This is an unselected part of about 21,000 reagents tested. Of all reagents, 497 (2.4%) are marked active. 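Higher z means weaker E2 silencing; only reporter increases were scored, and knock-downs that hurt cell survival may mask genuine repressor factors.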 A number with no mark means an inactive call.

| gene | mean z-score | z-score, replicate A | z-score, replicate B | z-score, replicate C |
| --- | --- | --- | --- | --- |
| LOC400541 | 1.5 | 1.34 | 1.52 | 1.63 |
| RPL24 | -2.51 | -2.2 | -2.77 | -2.58 |
| MPZ | 0.25 | 0 | 0.35 | 0.41 |
| KIF15 | -0.14 | 0.05 | -0.29 | -0.19 |
| TSSC4 | -0.19 | 0.39 | -0.31 | -0.64 |
| RAX | -0.83 | -0.7 | -0.63 | -1.15 |
| SCD | -0.86 | -1.02 | -0.61 | -0.95 |
| ERLIN1 | -1.02 | -1.09 | -0.88 | -1.07 |
| UTP25 | -1.66 | -1.76 | -1.69 | -1.55 |

The list goes on (2 carried over from the part before).
| gene | mean z-score | z-score, replicate A | z-score, replicate B | z-score, replicate C |
| --- | --- | --- | --- | --- |
| ERLIN1 | -1.02 | -1.09 | -0.88 | -1.07 |
| UTP25 | -1.66 | -1.76 | -1.69 | -1.55 |
| PNPLA2 | 0.81 | 1.32 | 0.89 | 0.24 |
| FAM209B | -1.35 | -1.4 | -1.13 | -1.53 |
| PRNT | 0.72 | 0.73 | 0.53 | 0.89 |
| LOC338749 (retired record) | -1.27 | -1.5 | -1.05 | -1.27 |
| AZU1 | -0.37 | -0.49 | -0.2 | -0.42 |
| SOAT2 | -1.35 | -1.4 | -1.15 | -1.49 |
| NEXMIF | 0.6 | 0.66 | 0.41 | 0.72 |
| TRIM49 | 0.51 | 0.22 | 0.96 | 0.33 |
| LOC388365 (retired record) | -0.45 | -0.49 | -0.45 | -0.41 |
| PTPRC | 0.46 | 0.38 | 0.23 | 0.78 |
| CATSPER2 | 0.86 | 1.06 | 0.93 | 0.6 |
| CSPP1 | -0.33 | 0.1 | -0.16 | -0.94 |
| PRPS1L1 | 0.35 | 0.38 | 0.25 | 0.42 |
| FMO4 | -0.84 | -0.65 | -0.89 | -0.99 |
